Data as given in patent US9534007B2, “Methods and compositions for treatment of cyanide and hydrogen sulfide toxicity” (dated 2017).

Key:
[1] = Rescue of mice from sulfide gas exposure (15-25 model), intraperitoneal antidote
[2] = Lethal cyanide poisoning in swine, intravenous antidote one minute post apnea; details: for pH: arterial blood; for pH / Lactate / bicarbonate: at 60 min; for animals that died before completion of the experiment: between antidote at one min after onset of apnea and 60 min later, N = 10 per group; for animals in which cyanide was not detected: whole blood, immediately after treatment
[3] = Lethal rabbit model of sulfide poisoning, continuous intravenous NaSH infusion; details: intravenous antidote; NaSH 3 mg/min up to 90 min; cobinamide and hydroxocobalamin 25 mg/kg, sodium nitrite 3.5 mg/kg
[4] = 2.67 ppt H2S, CbiS2O3 7.5 μmole, hydroxycobalamin 25 μmole, sodium thiosulfate 7.5 mole, 60 min observation, 6 mice per group (FIG. 25)
[5] = cobinamide 7.5 μmol (given as the thiosulfate derivative), hydroxocobalamin 25 μmol, equivalent thiosulfate dose, 5 mice per group (FIG. 24)
[6] = cyanide-poisoned swine, 60 min after IV bolus, hydroxocobalamin 65 mg/kg, dinitrocobinamide 12.5 mg/kg

Row | Compound | survival rate [1, 4] | survival rate [1, 5] | pH [2] | Lactate [2] | bicarbonate [2] | animals that died before completion of the experiment [2] | survival [2, 6] | Mean arterial pressure (MAP) ([2]; end of the experiment) | animals in which cyanide was not detected [2] | average survival time [3] | other results
1 | hydroxocobalamin | 17% | 20% | 7.44 | 1.2 mmol/L | 28 mEq/L | One animal | 90% | 88±15.2 mm Hg | 10/10 | 41 min | 
2 | O=NO |  |  |  |  |  |  |  |  |  | 37 min | survival ([2]; sodium nitrite only, same amount as present in the dinitrocobinamide, five animals): None of these animals survived
3 | dinitrocobinamide |  |  | 7.44 | 1.5 mmol/L | 28 mEq/L | one animal | 90% | 71±10 mm Hg | 7/10 | 81 min | systolic blood pressure ([2]; end of the experiment): 91±15.1 mm Hg; potency relative to hydroxocobalamin (dose required to rescue swine) ([2]; milligram per kilogram basis): five times more hydroxocobalamin than cobinamide
4 | O=S(O)(O)=S | 17% | 20% |  |  |  |  |  |  |  |  | 
5 | cobinamide thiosulfate | 83% |  |  |  |  |  |  |  |  |  | 
6 | cobinamide |  | 80% |  |  |  |  |  |  |  | 84 min | 
